PubChem BioAssay AID504761 – Drosophila RNAi Screening Center, 2011

Aim: 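Genome-wide fly cell screen for genes dengue virus requires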 (primary screen)
Cell system: D.Mel-2 cells from Drosophila
Knock-down reagent: long dsRNA against Drosophila genes
Challenge: infection with dengue virus type 2; dose and infection time not stated
Read-out: 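Cells stained for dengue envelope protein and imaged; percent of infected cells per well on duplicate plates, ranked by infection, with stained nuclei counted for cell number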
Scale: infection score: higher = more virus-infected cells; cell count: higher = more cells in the well
Rule for the call: 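Very low infection ranking in both replicate wells (chance probability at most 0.065), then a retest showing infection dropped 1.5-fold or more at p below 0.05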
Meaning of the calls: active = confirmed: knock-down lowers infection; inactive = not picked or not confirmed
In all, the deposit lists about 22,000 reagents; shown is a random part of those that have a named target and a result. In the full data, 116 (0.52%) got an active call. 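Calls depend on retest data that are not deposited; infection was ranked per plate without normalising between plates; the unit of the infection score is not given.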 Raw values vary from plate to plate and are shown uncorrected. A number with no mark means an inactive call. Reagent sequences are not shown. Not given: the amount of reagent, the time to read-out.

no.	Target gene	dsRNA	infection score, replicate 1	infection score, replicate 2	cell count, replicate 1	cell count, replicate 2
1	CG13223	DRSC06344	16.9	5.91	5385	6617
2	GstD11	DRSC15251	9.53	16.4	6558	6079
3	GstD11	DRSC26490	7.94	1.57	6338	5853
4	toc	DRSC00169	4.41	1.04	5557	5551
5	toc	DRSC00171	1.94	5.8	6123	5382
6	toc	DRSC00842	6.43	2.62	6279	6439
7	NFAT	DRSC18991	3.91	5.6	6270	5554
8	NFAT	DRSC19393		33.3	354	5135
9	NFAT	DRSC24828	0.74	2.39	5961	5930
10	NFAT	DRSC29663	20.2	26.1	2892	4127
11	CG12911	DRSC06226	16.3	4.57	5921	6345
12	CG12911	DRSC27975	3.39	8.78	6458	5878
13	spag	DRSC04717	9.75	8.41	5693	6135
14	Nnk	DRSC15274	4.52	1.67	5751	6361
15	Nnk	DRSC24564	1.23	1.7	6479	6286
16	CG42319	DRSC06645	16.8	4.96	5627	6256
17	CG42319	DRSC06646	9.51	29.2	1599	5823
18	CG42319	DRSC22426	2.39	7.81	6069	6726
19	CG42319	DRSC26059	2.98	1.67	6237	6216
20	mRpS18B	DRSC02107	8.8	12.4	5861	379
21	Sirt7	DRSC14294	1.72	1.8	5770	6437
22	Sirt7	DRSC26219	4.02	1.51	6390	5618
23	CG15594	DRSC12280	4.28	4.13	6479	6659
